Pooled drug test results. Numbers come from NIAID ChemDB, via PubChem.

Shared fields: tests in culture; species: Candida tropicalis

An empty or dashed field is not shown.

smiles | strain | read by | conditions | endpoint | dose | result
CC(C)(O)c1cn(-c2ccc3ccccc3c2)nn1 | URM 4262 | broth dilution |  | inhibition | 2048 µg/mL | 0%
C[C@@H]1CC(=O)N(c2ccc(F)cc2)C1=O | CCC 131-2000 | broth dilution / turbidity |  | MIC |  | 62.5 µg/mL
CC(C)(O)c1cn(-c2ccc([N+](=O)[O-])cc2)nn1 | URM 933 | broth dilution |  | inhibition | 2048 µg/mL | 0%
C[C@@H]1CC(=O)N(c2ccc(Br)cc2)C1=O | CCC 131-2000 | broth dilution / turbidity |  | MIC |  | 62.5 µg/mL
CC(C)CC(O)C(=O)O | ATCC 750 | broth dilution / visual reading |  | MFC100 |  | 72000 µg/mL
Nc1ncccc1-c1cc(Cc2ccc(COc3ccccn3)cc2)no1 | 8685 | broth dilution |  | MIC |  | 0.06 µg/mL
C=CCc1ccc(OC)c(OC)c1 | 341 | turbidity |  | MIC90 |  | 345 µg/mL
CC1CC2=C(O1)c1ccccc1C(=O)C2=O | Clinical isolate | broth dilution |  | MIC |  | 37.3 µg/mL
CC(C)CC(=O)C(=O)O | ATCC 750 | broth dilution |  | MFC100 |  | >72000 µg/mL
C[C@@H]1C(=O)N(CCCCc2ccccc2)C(=O)[C@@H]1C | CCC 131-2000 | broth dilution / turbidity |  | MIC |  | 62.5 µg/mL
CCC(C)CC(C)CCCCCCCCC(=O)N[C@H]1C[C@@H](O)[C@H](NCCN)NC(=O)[C@@H]2[C@@H](O)CCN2C(=O)[C@H]([C@H](O)CCN)NC(=O)[C@H]([C@H](O)[C@@H](O)c2ccc(O)cc2)NC(=O)[C@@H]2C[C@@H](O)CN2C(=O)[C@H]([C@@H](C)O)NC1=O | 8663 | broth dilution |  | MIC |  | 4 µg/mL
C[C@@H]1CC(=O)N(c2ccc([N+](=O)[O-])cc2)C1=O | CCC 131-2000 | broth dilution / turbidity |  | MIC |  | 125 µg/mL
CC(=O)OC[C@H]1O[C@@H](O[C@@H]2[C@@H](N=[N+]=[N-])[C@H](O)[C@H](O)[C@H]3OC(C)(C)O[C@H]32)[C@H](OC(C)=O)[C@@H](OC(C)=O)[C@H]1OC(C)=O | C 131 | broth dilution / turbidity |  | inhibition | 31.25 µg/mL | 14.97%
CC(C)(O)c1cn(-c2cccc3ccccc23)nn1 | URM 933 |  |  | inhibition | 2048 µg/mL | 0%
C[C@@H]1CC(=O)N(CCCCc2ccccc2)C1=O | CCC 131-2000 | broth dilution / turbidity |  | MIC |  | 31.3 µg/mL
Clc1ccc(C(Cn2ccnc2)OCc2csc3c(Cl)cccc23)c(Cl)c1 | 65 isolates | visual reading | 48 h | MIC50 |  | 2 µg/mL
C[C@@H]1CC(=O)N(CCCc2ccccc2)C1=O | CCC 131-2000 | broth dilution / turbidity |  | MIC |  | 125 µg/mL
CC(C)(O)c1cn(-c2ccc(Cl)cc2)nn1 | URM 933 | broth dilution |  | MIC |  | 128 µg/mL

The last 2 rows once more:

C[C@@H]1CC(=O)N(CCCc2ccccc2)C1=O ; strain: CCC 131-2000 ; read by: broth dilution / turbidity ; endpoint: MIC ; result: 125 µg/mL
CC(C)(O)c1cn(-c2ccc(Cl)cc2)nn1 ; strain: URM 933 ; read by: broth dilution ; endpoint: MIC ; result: 128 µg/mL

Percent inhibition refers to the dose given; in toxicity tests it is the harm to the cells. MIC50, MIC90 and the like: level of inhibition, or share of isolates inhibited. Rows are shuffled and stem from different studies.